PubChem BioAssay AID1259414 | Drosophila RNAi Screening Center – 2018
Purpose: 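Fly genes that alter Wolbachia amount inside host cells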 (primary screen). System: Drosophila JW18 cells infected with Wolbachia. Reagents: long dsRNA against Drosophila genes, 0.25 µg dsRNA per well of a 384-well plate. Duration: 5 days. Challenge: cells persistently infected with Wolbachia before knock-down; no added drug. Measurement: 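Automated imaging of bacterial rRNA staining divided by host cell count, reported as plate-normalised robust z-score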. Scale: Wolbachia per cell robust z: higher = more Wolbachia per host cell than the plate typical. Rule for the call: 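Hit when robust z is 1.5 or more, or -1.5 or less, in at least two of three replicates; excludes dsRNAs with several or no targets, genes not expressed in JW18 and well A1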.
The deposit covers about 24,000 reagents; below is a random part of those that have a named target and a result. Of all reagents, about 1,210 (5%) were called active. 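Inactive calls also include excluded dsRNAs with several or no targets, genes unexpressed in JW18, and well A1, regardless of score.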 A number with no mark means an inactive call. A plus sign joins genes that one reagent is predicted to hit.

| target | DRSC id | Wolbachia per cell robust z, rep 1 | Wolbachia per cell robust z, rep 2 | Wolbachia per cell robust z, rep 3 |
| --- | --- | --- | --- | --- |
| Ir7b | DRSC18009 | -4.79 | 0.589 | -2.95 |
| TrpRS | DRSC14097 | -0.479 | -0.0253 | 0.809 |
| CG14543 | DRSC14887 | 0.557 | -1.36 | 0.457 |
| CG14543 | DRSC26647 | 1.2 | 1.33 | 2.5 |
| mthl11 | DRSC12779 | 0.861 | 0.522 | 1.19 |
| mthl11 | DRSC28437 | 0.938 | 1.24 | -0.0938 |
| CG14036 | DRSC02361 | -0.635 | 0.162 | 0.639 |
| CG16812 | DRSC02519 | -0.117 | -0.804 | -1.43 |
| CG16812 | DRSC25180 | -0.824 | -0.798 | 0.103 |
| CG5181 | DRSC02825 | -1.06 | -0.17 | -0.46 |
| da | DRSC03517 | -0.25 | 0.535 | 0.307 |
| da | DRSC40784 | -2.64 | -1.04 | -0.747 |
| l(3)04053 | DRSC11640 | 0.316 | 1.22 | -1.35 |
| CG4612 | DRSC04478 | -2.1 | -0.38 | 0.735 |
| DNAlig3 | DRSC15201 | 1.03 | -3.17 | -0.24 |
| DNAlig3 | DRSC29603 | 1.08 | -0.142 | -5.36 |
| CG5787 | DRSC02895 | 0.929 | 1.32 | 1.75 |
| CG5787 | DRSC28731 | -0.734 | 0.591 | -0.639 |
| Trhn | DRSC08621 | -2.14 (active) | -0.784 | -2.3 |
| Scr | DRSC23141 | -1.73 | 0.12 | 0.555 |
| Scr | DRSC29201 | 0.145 | 0.649 | 2.28 |
| CG1409 | DRSC17910 | 0.712 | -5.67 | 0.395 |
| CG13716 | DRSC08325 | 0.544 | -0.458 | 0.397 |
| CG13716 | DRSC22815 | 1.41 | -6.02 | 0.235 |
| CG31126 | DRSC14623 | 0.941 | -0.903 | -4.73 |
| PH4alphaNE2 | DRSC16544 | -1.36 | 0.423 | -0.0866 |
| PH4alphaNE2 | DRSC24689 | 1.31 | 0.27 | 0.584 |
| Cph | DRSC25005 | 0.641 | 0.297 | 0.538 |
| Cph | DRSC37513 | -0.377 | -1.51 | 0.752 |
| Rrp47 | DRSC20124 | 0.982 | 0.659 | 0.474 |
| Rrp47 | DRSC25568 | -11.2 (active) | -7.14 | -0.265 |
| Smg6 | DRSC16029 | -0.475 | -0.571 | 0.307 |
| Smg6 | DRSC27703 | -0.155 | 0.225 | -2.84 |
| CG3520 | DRSC04383 | -0.524 | -0.431 | -0.00373 |
| Rm62 | DRSC12365 | 0.946 | 0.677 | -0.0858 |
| Rm62 | DRSC25109 | 0.43 | -0.279 | -1 |
| TwdlC | DRSC14749 | 0.316 | 0.604 | 1.09 |
| TwdlC | DRSC25255 | -1.03 | 0.908 | -0.373 |
| Cpr49Aa | DRSC07197 | 0.957 | 0.79 | -1.39 |
| CG3939 | DRSC18498 | -0.234 | -2.74 | -0.534 |
| yellow-g | DRSC08575 | 0.953 | 0.819 | 1.29 |
| mRpL41 | DRSC06257 | -0.773 | -2.97 | 0.77 |
| mRpL41 | DRSC29395 | 0.66 | -0.456 | 0.22 |
| mRpL41 | DRSC39029 | -4.29 | -0.856 | -0.79 |

Entries listed so far whose target name starts with T or t (4):
| target | DRSC id | Wolbachia per cell robust z, rep 1 | Wolbachia per cell robust z, rep 2 | Wolbachia per cell robust z, rep 3 |
| --- | --- | --- | --- | --- |
| TrpRS | DRSC14097 | -0.479 | -0.0253 | 0.809 |
| Trhn | DRSC08621 | -2.14 (active) | -0.784 | -2.3 |
| TwdlC | DRSC14749 | 0.316 | 0.604 | 1.09 |
| TwdlC | DRSC25255 | -1.03 | 0.908 | -0.373 |

The results go on:
| target | DRSC id | Wolbachia per cell robust z, rep 1 | Wolbachia per cell robust z, rep 2 | Wolbachia per cell robust z, rep 3 |
| --- | --- | --- | --- | --- |
| CG32413 | DRSC21591 | 0.765 | -2 | -1.38 |
| ZnT41F | DRSC04850 | 0.0646 | 1.02 | 0.843 |
| CR18228 | DRSC15317 | -5.94 | 0.922 | 0.826 |
| Hs2st | DRSC03348 | -3.46 | -0.726 | 0.655 |
| CG17732 | DRSC10283 | 0.307 | -1.81 | 0.98 |
| CIAPIN1 | DRSC03559 | 0.392 | -0.239 | 0.294 |
| CIAPIN1 | DRSC24039 | 0.65 | -0.414 | -0.734 |
| CIAPIN1 | DRSC41258 | -0.715 | -0.988 | -0.752 |
| CG7016 | DRSC16174 | -4.1 | -1.11 | -6.69 |
| CG5805 | DRSC15878 | -0.367 | -1.78 | -0.00416 |
| CG5805 | DRSC24253 | 0.344 | -0.63 | 1.11 |
| CG5805 | DRSC39075 | -3.67 | -0.368 | -0.803 |
| Socs44A | DRSC06828 | -1.67 | -0.117 | -1.33 |
| Ebp | DRSC04048 | -1.56 | -0.119 | -0.266 |
| Ebp | DRSC27342 | -0.736 | 0.592 | -0.469 |
| CRAT | DRSC12523 | -7 | 0.0571 | 0.685 |
| CRAT | DRSC29377 | 1.49 | 0.156 | 0.609 |
| Hat1 | DRSC12298 | -0.371 | -0.818 | -3.56 |
| Hat1 | DRSC29235 | 0.862 | 1.09 | 0.897 |
| HemK2 + Snapin | DRSC00736 | -2.25 | 1.41 | -0.193 |
| Vps11 | DRSC11909 | 0.51 | 0.171 | 1.09 |
| Vps11 | DRSC21579 | -0.801 | -0.734 | 0.805 |
| CG15818 | DRSC02505 | 0.537 | 0.289 | 1.23 |
| CG15818 | DRSC28515 | 0.672 | 0.23 | -0.769 |
